Laboratory results reported in article PMC10419416, “Fighting Pseudomonas aeruginosa Infections: Antibacterial and Antibiofilm Activity of D-Q53 CecB, a Synthetic Analog of a Silkworm Natural Cecropin B Variant” (International Journal of Molecular Sciences, 2023).
Non-standard residues stand in square brackets, D forms with d. Residues, ends and D or L forms follow the SMILES beside them.

Assays:
[1] = system: human red blood cells (hRBCs); assay type: cell-based
Protocol: The peptide hemolytic activity was evaluated against human red blood cells (hRBCs) using the Haemolysis Assay Kit (HaemoScan, Groningen, The Netherlands), following the manufacturer’s instructions. 180 μL of hRBC solution were incubated 1 h at 37 °C with 20 μL of serially diluted L- and D-CecB Q53 peptides (final concentrations of 5, 10, 25, 50, 100, 200 µM) in triplicate. As hemolysis positive and negative controls, hRBC solutions incubated, respectively, with 0.2% Triton X and PBS, were followed in parallel. After centrifugation 10 min at 10,000× g, each supernatant was diluted 1:10 in the Assay Buffer and read at 450 nm with a microplate reader.
Hemolysis was evaluated according to the following equation: Hemolysis (%)=ODCecB−OD0/ODCtrl−OD0×100, where ODCecB is the OD in the presence of the peptide, ODCtrl is the OD of treated controls (0.2% Triton X), and OD0 is the background absorbance. The experiment was performed at least twice.

[2] = system: CCD-34Lu lung fibroblasts; assay type: cell-based, human; details: stated for both cell lines
Protocol: The peptide cytotoxicity against human cells was evaluated using CCD-34Lu-lung fibroblasts and A549-lung adenocarcinoma cells. Moreover, 6 × 10^3 cells in DMEM medium added with 10% FBS were seeded in 96-well sterile plates. After 24 h, cells were incubated with increasing concentrations of peptide (final concentrations of 5, 10, 25, 50, and 100 µM, with an additional concentration of 200 µM in CCD-34Lu) for 24 h at 37 °C (three replicates per condition). Cell viability was measured by removing the exhausted medium, adding 100 µL of DMEM and 20 µL of the MTS solution (Promega). Plates were incubated at 37 °C for 20 min until the complete conversion of the compound. The absorbance was measured at 492 nm using a microplate reader. Cell viability was calculated using the formula: Viability (%)=ODCecB−OD0/ODCtrl−OD0×100, where ODCecB is the OD in the presence of the peptide, ODCtrl is the OD of cells without the peptide, and OD0 is the background absorbance (wells with only medium and MTS compound). The experiment was performed at least twice.

CC[C@@H](C)[C@@H](NC(=O)[C@@H](C)NC(=O)[C@@H](CCCCN)NC(=O)[C@@H](C)NC(=O)[C@@H](CO)NC(=O)CNC(=O)[C@@H](CC(C)C)NC(=O)[C@H](NC(=O)[C@@H](CCC(N)=O)NC(=O)[C@H](NC(=O)[C@@H](C)NC(=O)[C@H]1CCCN1C(=O)CNC(=O)[C@@H](C)NC(=O)[C@@H](CCCCN)NC(=O)[C@H](NC(=O)[C@H](NC(=O)CNC(=O)[C@@H](CC(=O)O)NC(=O)[C@@H](CCCNC(=N)N)NC(=O)[C@H](NC(=O)[C@@H](CC(N)=O)NC(=O)[C@@H](CCCNC(=N)N)NC(=O)CNC(=O)[C@@H](CCSC)NC(=O)[C@@H](CCCCN)NC(=O)[C@@H](CCC(=O)O)NC(=O)[C@H](NC(=O)[C@@H](CCCCN)NC(=O)[C@@H](CCCCN)NC(=O)[C@@H](Cc1ccccc1)NC(=O)[C@H](NC(=O)[C@@H](CCCCN)NC(=O)[C@@H](Cc1c[nH]c2ccccc12)NC(=O)[C@H](N)CCCNC(=N)N)[C@H](C)CC)[C@H](C)CC)[C@H](C)CC)[C@H](C)CC)C(C)C)[C@H](C)CC)C(C)C)C(N)=O [D-Q53 CecB] (H-[dR][dW][dK][dI][dF][dK][dK][dI][dE][dK][dM]G[dR][dN][dI][dR][dD]G[dI][dV][dK][dA]G[dP][dA][dI][dQ][dV][dL]G[dS][dA][dK][dA][dI]-NH2; N-terminus and C-terminus assumed)
MHC relative to MBC [1]: ~ 23 fold
MHC relative to MIC in 2 mM CaCl2 ([1]; most perturbing condition (2 mM CaCl2)): ~7 fold
IC50 relative to MBC [2]: ~ 15 fold
IC50 relative to MIC in 2 mM CaCl2 [2]: ~4 fold
